Test results from PMC7253382, “Trypanocidal and leishmanicidal activity of six limonoids” (Journal of Natural Medicines, 2020).

Columns and labels:
[1] = tested on: promastigotes of Leishmania major (strain MHOM/IL/81/Friedlin); experiment: In vitro toxicity assay (resazurin), L. major promastigotes; format: cell-based; details: for L. major GI50 ratio: selectivity index GI50,HL-60/GI50,parasite; for L. major MIC ratio: selectivity index MIC HL-60/MIC parasite
Description: (§1) Bloodstream forms of Trypanosoma brucei (clone 427-221a) and human myeloid leukaemia HL-60 cells were maintained in Baltz medium supplemented with 16.7% heat-inactivated bovine serum in a humidified atmosphere containing 5% CO2 at 37 °C. Promastigotes of Leishmania major (strain MHOM/IL/81/Friedlin [16]) were cultured in Schneider’s insect medium supplemented with 10% heat-inactivated foetal bovine serum in a humidified atmosphere containing 5% CO2 at 27 °C.
(§2) Toxicity assays were carried out as previously described with some modifications. In brief, cells were seeded in 96-well plates in a final volume of 200 μL of appropriate medium containing various concentrations of test compounds (tenfold dilution from 100 µM to 1 nM) and 1% DMSO. Wells just containing medium and 1% DMSO served as controls. The initial cell densities were 1 × 10^4/mL for T. brucei bloodstream forms, 2.5 × 10^5/mL for L. major promastigotes, and 5 × 10^4/mL for HL-60 cells. After 24 h incubation, 20 µL of a 0.5 mM resazurin solution prepared in PBS was added and the cells were incubated for a further 48 h. Thereafter, the absorbance of wells was read on a BioTek ELx808 microplate reader using a test wavelength of 570 nm and a reference wavelength of 630 nm. The 50% growth inhibition (GI50) value, i.e., the concentration of a compound necessary to reduce the growth rate of cells by 50% compared to the control, was determined by linear interpolation. The minimum inhibitory concentration (MIC) values, i.e. the concentration of a compound at which all trypanosomes and human cells were killed, was determined microscopically.

[2] = tested on: bloodstream forms of Trypanosoma brucei (clone 427-221a); experiment: In vitro toxicity assay (resazurin), T. brucei bloodstream forms; format: cell-based; details: for T. brucei GI50 ratio: selectivity index GI50,HL-60/GI50,parasite; for T. brucei MIC ratio: selectivity index MIC HL-60/MIC parasite
Description: as §1, §2

SMILES	L. major GI50 ratio [1]	L. major MIC ratio [1]	T. brucei GI50 ratio [2]	T. brucei MIC ratio [2]
C[C@@H]1[C@H](O)[C@@H](C)/C=C/C=C/C=C/C=C/C=C/C=C/C=C/[C@H](O[C@@H]2O[C@H](C)[C@@H](O)[C@H](N)[C@@H]2O)C[C@@H]2O[C@](O)(C[C@@H](O)C[C@@H](O)[C@H](O)CC[C@@H](O)C[C@@H](O)CC(=O)O[C@H]1C)C[C@H](O)[C@H]2C(=O)O [Amphotericin B, reference compound]	1408	> 1000	–	–
C=C1[C@@H]([C@@]2(C)C=CC(=O)C(C)(C)[C@@H]2CC(=O)OC)CC[C@@]2(C)[C@H](c3ccoc3)OC(=O)[C@H]3O[C@]132 [Compound 5, andirobin]	1	1	> 8.7	–
CC1(C)C(=O)C=C[C@]2(C)C3C(=O)C[C@@]4(C)[C@H](c5ccoc5)OC(=O)[C@H]5O[C@]54[C@]3(C)[C@H](O)C[C@@H]12 (stereo partly shown) [Compound 2, kotschyienone B]	> 6.7	> 1	–	> 1
Cc1ccc(C(=O)Nc2ccc(S(=O)(=O)O)c3cc(S(=O)(=O)O)cc(S(=O)(=O)O)c23)cc1NC(=O)c1cccc(NC(=O)Nc2cccc(C(=O)Nc3cc(C(=O)Nc4ccc(S(=O)(=O)O)c5cc(S(=O)(=O)O)cc(S(=O)(=O)O)c45)ccc3C)c2)c1 [Suramin, reference compound]	–	–	> 2381	> 100
